From the supplement of paper PMC9931576 come the findings set out here.

What all share (experiment): pseudovirus neutralization IC50; higher = weaker neutralization
The target of test [1] is SARS-CoV-2 Omicron BA.1 spike pseudovirus. The procedure:
(§1)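 Single-round VSV luciferase pseudovirus mixed with antibody dilutions for 1 h and put on Huh-7 cells for about a day; IC50 from the dose curve.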

For test [2], the target named is SARS-CoV-2 Omicron BA.2 spike pseudovirus. How it is done: as §1
Test [3] concerns the target SARS-CoV-2 Omicron BA.2.75 spike pseudovirus. How it is done:
as §1

Test [4] deals with SARS-CoV-2 Omicron BA.5 spike pseudovirus. The procedure:
as §1

In test [5] the target is SARS-CoV-2 Omicron BQ.1.1 spike pseudovirus. The procedure:
as §1

For test [6], the target named is SARS-CoV-2 Omicron XBB spike pseudovirus. How it is done:
as §1

The target of test [7] is SARS-CoV-2 early D614G spike pseudovirus. The procedure: as §1

Substitutions are numbered along the chain they refer to. Human monoclonal antibodies against the spike receptor-binding domain (heavy:light variable regions). IC50 against pseudoviruses bearing the spike of naturally observed variants; lower = stronger; >10 µg/ml means not reached at the top dose. No active / inactive call. The stated detection limit is 0.0005 µg/ml; values near or below 0.001 µg/ml lie at the floor of the assay.

B1: BD56-548 (protein)
chain 1: QVTLRESGPALVKPTQTLTLTCTFSGFSLTTRGMCVSWIRQPPGKALEWLALIDWDDDKYYSTSLKTRLTISKDTSKNQVVLTMTNMDPVDTATYYCARISGIAVEYYHYGMDVWGQGTTVTVSS
chain 2: SYELTQPPSVSVSPGQTARITCSGEPFPNLYAYWYQQKPGQAPVLLIYKDTERPSGIPERFSGSSSGTTVTLTISGVQAEDEADYYCQSADSSGVVFGGGTKLTVL
Regarding B1, the “pseudovirus neutralization IC50” value in test [1] was 3.24 µg/mL; in test [2] it was 3.63 µg/mL; in test [3] it was 6.2 µg/mL; in test [4] it was 5.23 µg/mL; in test [5], 3.71 µg/mL; in test [6], 5.44 µg/mL. Besides, the “pseudovirus neutralization IC50” value in test [7] came to 0.6 µg/mL.

B2: BD56-553 (protein)
chain 1: EVQLVESGGGLVQPGGSLRLSCAASGFTFSTYDMHWVRQGAGKGLEWVSGIGTSGDTYYADSVKGRFTISRENAKNSLYLQMNSLRAGDTAVYYCARGYFQDDYGPNWFDPWGQGTLVTVSS
chain 2: DIQMTQSPSSLSASVGDRITITCRASQSISNYLNWYQQKPGRAPKLLIYAASSLQRGVPSRFSGSGSGTDFTLTISSLQPEDFASYYCQQSYVIPPWTFGQGTKVEIK
As for B2, the “pseudovirus neutralization IC50” value in test [1], in test [2], in test [3], in test [4], in test [5] and in test [6] was above 10 µg/mL throughout. In test [7], the “pseudovirus neutralization IC50” value was above 10 µg/mL.

B3: BD56-544 (protein)
chain 1: QVQLVQSGPEVKKPGTSLKVSCKASGFTFSNSAVQWVRRARGQGLEWIGWIVVGNGETNYAQRFQERLTITRDMSRDMSTSTVYMELRSLRSDDTAVYYCAADRVETMVRFREGGMDVWGRGTTVTVSS
chain 2: SYELTQPPSVSVSPGQTARITCSGDAWPKQYAYWYQQKPGQAPVLVIYKDSERPSGIPERFSGSSSGTIVTLTISGVQAEDEADYYCQSADDRQVVFGGGTKLTVL
For B3, the “pseudovirus neutralization IC50” value worked out at 4.26 µg/mL in test [1]; 3.93 µg/mL in test [2]; 8.19 µg/mL in test [3]; 2.89 µg/mL in test [4]; 2.52 µg/mL in test [5]; 3.36 µg/mL in test [6]. Besides, the “pseudovirus neutralization IC50” value in test [7] came to 9.59 µg/mL.

B4: BD56-536 (protein)
chain 1: QVQLVQSGSELKKPGASVKVSCKALGYPFTTFAMNWVRQAPGQGLKWMGWINTNTGNPTYAQGFTGRFVFSLDTSVSTAYLQISSLKAEDTAVYYCASWAGSVGPGWFDPWGQGTLVTVSS
chain 2: SYVLTQPPSVSVAPGQTATITCAGDNIGTKSVHWYQQKPGQAPLLVIYYDSDRPSGIPERFSGSNSGNTATLTVSRVEGGDEADYYCQVWHSSNDHVDDVVFGGGTKLTVL
As for B4, the “pseudovirus neutralization IC50” value in test [1] is 0.675 µg/mL; in test [2], 0.635 µg/mL; in test [3] it was 0.609 µg/mL; in test [4], above 10 µg/mL; in test [5] it was above 10 µg/mL; in test [6], above 10 µg/mL. Besides, in test [7], the “pseudovirus neutralization IC50” value came to 5.71 µg/mL.

B5: BD56-563 (protein)
chain 1: QVQLVESGGGVVQPGRSLRLSCAASGFTFSSYAMHWVRQAPGKGLEWVAVILYDGSNKFYADSVKGRFTISRDNSKHTLYLQMNSLRGEDTAVYYCARDTLDRALVTWFDYWGQGTLVTVSS
chain 2: DIQMTQSPSSLSASVGDRVSIACRASQNIASYLNWYQQKPGKAPKLLIYTASSLQSGVPSRFSGSGSGTDFTLTISSLQPEDFATYYCQQSYSTPPWTFGQGTKVEIK
As to B5, the “pseudovirus neutralization IC50” value in test [1], in test [2], in test [3], in test [4], in test [5] and in test [6] was above 10 µg/mL throughout. Moreover, the “pseudovirus neutralization IC50” value in test [7] was above 10 µg/mL.

B6: DH1161-2 (protein)
chain 1: QVQLVQSGAEVKKPGALLRVSCKGSGDTSTNHAIAWVRQAPGQGLEWMGWINVYNGRTNYAQKFQGRVTLTTDTATSTAYMELSSLRSDDTAVYYCARWIHRDFDWLPYGMFMDVWGQGTTVTVSS
chain 2: QSALTQPPSASGSPGQSVTISCTGTSSDVGVYKYVSWYQHHPGKTPKVIIYEVSKRPSGVPDRFSGSKSGNTASLTVSGLQAEDEADYYCTSYEADNTLVLGGGTKLTVL
On to B6, for which the “pseudovirus neutralization IC50” value in test [1], in test [2], in test [3], in test [4], in test [5] and in test [6] was above 10 µg/mL in each case. In test [7], the “pseudovirus neutralization IC50” value came out at 2.19 µg/mL.

B7: BD56-541 (protein)
chain 1: QVQLVQSGAEVKKPGSSVKVSCKASGGSFRNYAISWVRQAPGQGLEWMGRSIPVLGIANYAQKFQGRVTITADKSATTAYMELSSLRSEDTAVYYCARADRFTIAATGEGYWGQGTLVTVSS
chain 2: DIQMTQSPSSLSASVGDRVTITCQASQDISNSLNWCQQKPGKAPKFLIYDASTLETGVPSRFSGTGSGTDFTFTISSLQPEDVATYYCQQYDTLPWTFGQGTKVEIK
B7: the “pseudovirus neutralization IC50” value was 3.95 µg/mL in test [1]; 0.0468 µg/mL in test [2]; 3.36 µg/mL in test [3]; above 10 µg/mL in test [4]; above 10 µg/mL in test [5]; above 10 µg/mL in test [6]. The “pseudovirus neutralization IC50” value in test [7] came out at 3.09 µg/mL.

B8: BD56-572 (protein)
chain 1: QVQLQESGPGLVKPSQTLSLTCTVSRGSIRSGGFSWSWIRQHPGKGLEWLGNINPSGSTNYNPSLRNRLTISLDTSKNQFSLKVTSVTAADTAVYYCARLETGGYPHWFDPWGQGTLVTVSS
chain 2: SYVLTQPPSVSVAPGKTARITCGGNNIGGKSVHWYQQKPGQAPLLVIYYDSARPSGIPERFSGSNSGNTATLTISRVEAGDEAEYHCQVWDSSSDHPVFGGGTKLTVL
As for B8, the “pseudovirus neutralization IC50” value in test [1] was 1.07 µg/mL; in test [2], 1.42 µg/mL; in test [3], 1.21 µg/mL; in test [4], 0.553 µg/mL; in test [5], above 10 µg/mL; in test [6], above 10 µg/mL. Further, the “pseudovirus neutralization IC50” value in test [7] was determined as 0.353 µg/mL.

B9: BD56-568 (protein)
chain 1: EVQLVESGGGLVQPGGSLRLSCAASGFTFSSYDMHWVRQATGKSLEWVSAIGIAGDTYYPDSVKGRFTISRENAKNSLYLQMNSLRAGDTAMYYCTRITHSGIAAGGRMSYYYYMDVWGKGTTVTVSS
chain 2: DIQMTQSPSSLSASVGDRVTITCRASQSIRIFLNWYQLKPGKAPNLLIYGASSLQNGVPSRFSGSGSGTDFTLTINSLQPEDFATYYCQQTYSSPGSTFGGGTKVEIK
On to B9, for which the “pseudovirus neutralization IC50” value in test [1] was determined as 7.73 µg/mL; in test [2] it was 5.56 µg/mL; in test [3], 3.39 µg/mL; in test [4], 7.64 µg/mL; in test [5], 4.62 µg/mL; in test [6], 4.85 µg/mL. Moreover, in test [7], the “pseudovirus neutralization IC50” value turned out to be 3.65 µg/mL.

B10: BD56-573 (protein)
chain 1: EVQLVESGGGLVQPGGSLRLSCAASGFTFSTYDMHWVRQTTGKGLEWVSTIGSAGDRYYPDSVKGRFTISRENAKNSLYLQMNSLKAGDTAVYYCARVTHSAMTAGGRIFHYYYMDVWGKGTTVTVSS
chain 2: B9 chain 2 with S28T, R30T, I31R, L38Q, N45K, N56S, N76S, Y87F
With B10, the “pseudovirus neutralization IC50” value in test [1], in test [2], in test [3], in test [4], in test [5] and in test [6] was above 10 µg/mL throughout. Besides, the “pseudovirus neutralization IC50” value in test [7] was 6.28 µg/mL.

B11: BD56-542 (protein)
chain 1: QVHLEQSGAEVKKPGSSVKVSCKAPGGTFSSYAISWVRQAPGQGLEWMGKIIPILGIANYAQTFQVRVTITADKSTGTAYMELSSLRSEDTALYYCARERGYSGDGSSWYFDLWGRGTLVTVSS
chain 2: SVLTQPPSVSGAPGQRVTISCTGSNSNIGAGYDVHWYQQLPGTAPKLLIYANNNRPSGVPDRFSGSKSGTSASLAITGLQAEDEADYYCQSYDSSLNDSGVFGGGTKLTVL
Turning to B11, the “pseudovirus neutralization IC50” value in test [1] is 0.662 µg/mL; in test [2], 0.712 µg/mL; in test [3], 0.734 µg/mL; in test [4], above 10 µg/mL; in test [5], above 10 µg/mL; in test [6], above 10 µg/mL. In addition, in test [7], the “pseudovirus neutralization IC50” value was determined as 0.724 µg/mL.

B12: BD56-567 (protein)
chain 1: QVQLVESGGGVVQPGRSLRLSCAASGFTFSTYAFHWVRQAPGKGLEWVAVISDDGSYKDYADSVKGRFTISRDNSKNTLDLQMNTVTTEDTALYYCAREGQTTVTTVFDSWGQGTLVTVSS
chain 2: DIQMTQSPSSLSASVGDRVTITCRASQSISRFLNWYQLKPGQAPKLLIYAASSLQSGVPSRFSGSGSGTDFTLTISSLQPEDFATYYCQQSYVNPSITFGQGTRLEIK
For the molecule B12, the “pseudovirus neutralization IC50” value is 5.42 µg/mL in test [1]; 5.43 µg/mL in test [2]; 7.63 µg/mL in test [3]; 5.05 µg/mL in test [4]; 5.27 µg/mL in test [5]; 3.98 µg/mL in test [6]. The “pseudovirus neutralization IC50” value in test [7] was found to be 0.871 µg/mL.
